A mixed list of measured activities; the numbers were collected in NIAID ChemDB.

All rows: whole-cell or culture tests; organism: HIV-1; read by: syncytia; read-out: EC50

ECn: concentration that inhibits the pathogen or its effect by n%. Lines come from different laboratories, so protocols vary. An empty or dashed field is not shown.

smiles | cells | changes | strain or isolate | value
Cc1cn([C@H]2C[C@H](N=[N+]=[N-])[C@@H](CO)O2)c(=O)[nH]c1=O | HeLa + HELA CD4+ |  |  | <0.001 µg/mL
N#CCN1C(=O)N(Cc2cccc(F)c2)S(=O)(=O)c2cscc21 | MT-4 |  | MN | 0.2 µM
Cc1cn([C@@H]2O[C@H](CO[Si](C)(C)C(C)(C)C)C3(OS(=O)(=O)C=C3N)[C@H]2O[Si](C)(C)C(C)(C)C)c(=O)n(C)c1=O | CEM | RT-L100I | IIIB-BHAP)(0.1)(RT-L100I | 0.05 µg/mL
CCn1c(=O)c(C)cn([C@@H]2O[C@H](CO[Si](C)(C)C(C)(C)C)C3(OS(=O)(=O)C=C3N)[C@H]2O[Si](C)(C)C(C)(C)C)c1=O | CEM | RT-Y181C | IIIB nevirapine-resistant (RT Y181C) | >50 µM
CCN1C(=O)N(Cc2ccccc2)S(=O)(=O)c2cscc21 | CEM | RT-L100I | IIIB | 10.2 µM
Cc1cn([C@@H]2O[C@H](CC3CCCCC3)C3(OS(=O)(=O)C=C3N)[C@H]2O[Si](C)(C)C(C)(C)C)c(=O)[nH]c1=O | CEM |  | IIIB | >4 µg/mL
Cc1ccnc2c1NC(=O)c1cccnc1N2C1CC1 | CEM | RT-L100I | IIIB-BHAP)(0.1)(RT-L100I | 0.05 µg/mL
CC(C)(C)OC(=O)Nc1cccc(B(O)O)c1 | CEM |  | IIIB | ≥250 µM
CN1C(=O)N(Cc2ccccc2)S(=O)(=O)c2cscc21 | CEM | RT-K103N | IIIB | >324 µM
Cc1cn([C@@H]2O[C@H](CO[Si](C)(C)C(C)(C)C)C3(OS(=O)(=O)C=C3N)[C@H]2O[Si](C)(C)C(C)(C)C)c(=O)n(C)c1=O | CEM |  | IIIB | 0.03 µg/mL
Cc1cn([C@@H]2O[C@H](CCC(C)C)C3(OS(=O)(=O)C=C3N)[C@H]2OC(=O)c2ccccc2)c(=O)[nH]c1=O | CEM |  | IIIB | >20 µg/mL
CCc1cc(NCc2nc3c(Cl)ccc(Cl)c3o2)c(=O)[nH]c1C | CEM | RT-Y181C | Pyr(RT-Y181C) | 11 µM
Nc1cc(OCCOCP(=O)(O)O)nc(N)n1 | CEM |  | IIIB | 1.1 µg/mL
CC(C)Nc1cccnc1N1CCN(C(=O)c2cc3cc(NS(C)(=O)=O)ccc3[nH]2)CC1 | HT4lacZ-1/IIIB + HT4 LacZ-1 |  | IIIB | 0.014 µM
CC(C)=CCN1Cc2cccc3[nH]c(=S)n(c23)C[C@@H]1C | CEM |  | IIIB | 0.02 µM
CC(C)=CCN1Cc2cc(Cl)cc3[nH]c(=S)n(c23)C[C@@H]1C | CEM |  | IIIB-TIBO(0.1) | 0.13 µg/mL
Cc1ccc(C(=O)O[C@H]2CN3CC[C@H](O)[C@@H]3[C@@H](O)[C@@H]2O)cc1 | JM |  | GB8 | 5.8 µg/mL
CC(C)=CCN1Cc2cc(Cl)cc3[nH]c(=S)n(c23)C[C@@H]1C | CEM | RT-E138K | IIIB TSAO-T(RT-E138K) | 0.1 µM
CN1C(=O)N(Cc2ccccc2)S(=O)(=O)c2cscc21 | MT-4 |  | IIIB | 7.1 µM
C1CNCCNCCCNCCNC1 | MOLT-4 |  | RF | >2500 µM
Cc1cn([C@@H]2O[C@H](CO[Si](C)(C)C(C)(C)C)C3(OS(=O)(=O)C=C3N)[C@H]2O[Si](C)(C)C(C)(C)C(C)C)c(=O)n(C)c1=O | MT-4 |  | IIIB | 0.1 µM
O=C1N(Cc2ccccc2)c2cscc2S(=O)(=O)N1Cc1ccccc1 | CEM | RT-Y188H |  | 7.8 µM
CCCC(=O)O[C@H]1CN2CC[C@H](O)[C@@H]2[C@@H](O)[C@@H]1O | JM |  | GB8 | 0.89 µM
O=C(O[C@H]1CN2CC[C@H](O)[C@@H]2[C@@H](O)[C@@H]1O)c1ccccc1 | JM |  | GB8 | 1 µg/mL
Cc1cn([C@@H]2O[C@H](CO[Si](C)(C)C(C)(C)C)[C@@]3(OS(=O)(=O)C=C3N)[C@H]2O[Si](C)(C)C(C)(C)C)c(=O)[nH]c1=O | CEM |  | IIIB | 0.02 µg/mL
O=C(CC[C@H](NC(=O)OCc1ccccc1)C(=O)O)Nc1ccc(B(O)O)cc1 | CEM |  | IIIB | >50 µM
Cc1cn([C@@H]2O[C@H](CO[Si](C)(C)C(C)(C)C)C3(OC(=O)N=C3N)[C@H]2O[Si](C)(C)C(C)(C)C)c(=O)[nH]c1=O | CEM |  | IIIB | >35 µM
Cc1cccc(C(=O)O[C@H]2CN3CC[C@H](O)[C@@H]3[C@@H](O)[C@@H]2O)c1 | JM |  | GB8 | 7 µg/mL
C=CCOC(=O)CCCCC | CEM |  |  | 68 µM
CC1=C(C(=O)O[C@]23OCC4(C)C2(C)C(=O)CC2([C@H](C)CC[C@@]24O)[C@H]3O)CCC1 | C8166 |  | IIIB | 41.8 µM
CCOCn1c(Sc2ccccc2)c(CC)c(=O)[nH]c1=O | CEM | RT-V106A | IIIB NEV(RT-V106A) | 0.08 µg/mL
C=CCOC(C)=O | CEM |  |  | 30 µM
CCOCn1c(Sc2ccccc2)c(CC)c(=O)[nH]c1=S | CEM |  | IIIB | 0.004 µg/mL
Cc1cn([C@@H]2O[C@H](CO[Si](C)(C)C(C)(C)C)C3(OS(=O)(=O)C=C3N)[C@H]2O)c(=O)[nH]c1=O | CEM |  | IIIB | >40 µM
C[C@@H]1O[C@@H](OC[C@H]2O[C@@H](Oc3c(-c4ccc(O)c(O)c4)oc4cc(O)cc(O)c4c3=O)[C@H](O)[C@@H](O)[C@@H]2O)[C@H](O)[C@H](O)[C@H]1O | C8166 |  | IIIB X4 | >330 µM
Cc1ccc(C(=O)O[C@H]2[C@H](O)[C@H]3[C@@H](O)CCN3C[C@@H]2O)cc1 | JM |  | GB8 | 3.4 µg/mL
CCN1C(=O)N(Cc2ccc(OC)cc2OC)S(=O)(=O)c2cscc21 | CEM |  | IIIB | >261.5 µM
OB(O)c1ccccc1/C=N/NC(=S)Nc1ccccc1 | CEM |  | IIIB | >50 µM
Cc1cn([C@@H]2O[C@@H](COC(=O)c3ccccc3)C3(OS(=O)(=O)C=C3N)C2O[Si](C)(C)C(C)(C)C)c(=O)[nH]c1=O | CEM |  | IIIB | >100 µg/mL
Cc1cn([C@@H]2O[C@H](COCc3ccccc3)C3(OS(=O)(=O)C(Cc4ccccc4)=C3NCc3ccccc3)[C@H]2O[Si](C)(C)C(C)(C)C)c(=O)n(C)c1=O | CEM |  | IIIB | 51 µM
Cc1cccc(C(=O)O[C@H]2CN3CC[C@H](O)[C@@H]3[C@@H](O)[C@@H]2O)c1 | JM |  | GB8 | 7 µg/mL
OB(O)c1ccc(Br)cc1 | CEM |  | IIIB | >50 µM
C=C(C)OC(=O)N1c2cc(Cl)ccc2NC(=S)C1(C)C | CEM |  | IIIB | 0.014 µM
O=C(O[C@H]1CN2CC[C@H](O)[C@@H]2[C@@H](O)[C@@H]1O)c1ccccc1 | JM |  | GB8 | 1 µg/mL
COc1ccc(CN2C(=O)Nc3cscc3S2(=O)=O)c(OC)c1 | CEM |  | IIIB | >282.2 µM
C[C@H](Cn1cnc2c(N)ncnc21)OCP(=O)(O)O | CEM | RT-A62V V75I F77L Q151M M184V | Clinical isolate HA20.17 | 12.5 µg/mL
N#CCN1C(=O)N(Cc2ccccc2)S(=O)(=O)c2cscc21 | MT-4 |  | MN | 1.5 µM
N#CCN1C(=O)N(Cc2ccccc2)S(=O)(=O)c2cscc21 | CEM | RT-K103N | IIIB | >300 µM
Cc1cn([C@@H]2O[C@H](COCc3ccccc3)C3(OS(=O)(=O)C=C3N)[C@H]2O[Si](C)(C)C(C)(C)C)c(=O)[nH]c1=O | CEM |  | IIIB | >6 µM
Cc1cn([C@@H]2O[C@H](CO[Si](C)(C)C(C)(C)C)C3(OC(=O)N(C)C3=N)[C@H]2O[Si](C)(C)C(C)(C)C)c(=O)n(C)c1=O | CEM |  | IIIB | >35 µM
Nc1ncnc2c1ncn2CCOCP(=O)(O)O | CEM | RT-S68G K70T V75I F77L K103N F116Y Q151M K219R | Clinical isolate L6.5 | 30 µg/mL
CCOCn1c(Cc2ccccc2)c(CC)c(=O)[nH]c1=O | CEM | RT-Y188H | IIIB HEPT-resistant (RT Y188H) | 7.3 µg/mL
Cc1cn([C@H]2C[C@H](N=[N+]=[N-])[C@@H](CO)O2)c(=O)[nH]c1=O | C8166 |  | IIIB | 0.0108 µM
OB(O)c1ccccc1 | CEM |  | IIIB | >250 µM
Nc1ncnc2c1ncn2CCOCP(=O)(O)O | CEM |  | IIIB | 11 µM
Nc1ncnc2c1ncn2CCOCP(=O)(O)O | CEM | RT-Y181C | IIIB nevirapine-resistant (RT Y181C) | 25 µM
C=CCSSCC=C | CEM |  |  | 34 µM
O=C1N(Cc2ccccc2)c2cscc2S(=O)(=O)N1Cc1ccccc1 | CEM |  | IIIB | 1.8 µM
CC(C)=CCN1Cc2cc(Cl)cc3[nH]c(=S)n(c23)C[C@@H]1C | CEM | RT-Y188H | HEPT (RT Y188H) | 3.1 µM
CC(C)[C@H](NC(=O)[C@H](C)N)C(=O)NCC(=O)O | HeLa + HELA CD4+ |  | BH10 | ~750 µM
Cc1cn([C@@H]2O[C@H](CO[Si](c3ccccc3)(c3ccccc3)C(C)(C)C)C3(OS(=O)(=O)C=C3N)[C@H]2O[Si](c2ccccc2)(c2ccccc2)C(C)(C)C)c(=O)[nH]c1=O | CEM |  | IIIB | >150 µM
C=CCC1(CC=C(C)C)C=C2OCOC2=CC1=O | C8166 |  | IIIB | 46.8 µM
Nc1ncnc2c1ncn2CC(CF)OCP(=O)(O)O | CEM | RT-Y181C | IIIB nevirapine-resistant (RT Y181C) | 10 µM
C[C@@H](Cn1cnc2c(N)nc(N)nc21)OCP(=O)(O)O | MOLT4 + MOLT-4 |  | HE | 8.5 µM
OB(O)c1ccc(/C=N\NC(=S)Nc2ccccc2)cc1 | CEM |  | IIIB | >50 µM
C1CNCCNCC(CCOCCOCCC2CNCCNCCCNCCNC2)CNCCNC1 | MOLT-4 |  | IIIB | 58.3 µM
Cc1ccnc2c1NC(=O)c1cccnc1N2C1CC1 | CEM | RT-V106A | IIIB | 2.44 µM
Cc1cn([C@@H]2O[C@H](CO[Si](C)(C)C(C)(C)C(C)C)C3(OS(=O)(=O)C=C3N)[C@H]2O[Si](C)(C)C(C)(C)C)c(=O)n(C)c1=O | CEM |  | IIIB | 0.8 µM
C=CCc1cc(O)c2c(c1)OCO2 | C8166 |  | IIIB | 102.2 µM
Cc1cn([C@@H]2O[C@H](CO[Si](C)(C)C(C)(C)C)C3(OS(=O)(=O)C=C3N)[C@H]2O[Si](C)(C)C(C)(C)C)c(=O)n(C)c1=O | CEM | RT-G190E | MN-QUIN(RT-G190E) | 7.5 µM
N[C@@H](CCC(=O)Nc1ccc(B(O)O)cc1)C(=O)O | CEM |  | IIIB | >50 µM
Cc1ccnc2c1NC(=O)c1cccnc1N2C1CC1 | CEM | RT-Y181C | IIIB E-EBU(RT-Y181C) | >50 µg/mL
OB(O)c1ccccc1CN1CCSCC1 | CEM |  | IIIB | >50 µM
CO[Si](OC[C@H]1O[C@@H](n2cc(C)c(=O)n(C)c2=O)[C@H](O[Si](C)(C)C(C)(C)C)C12OS(=O)(=O)C=C2N)(c1ccccc1)C(C)(C)C | MT-4 |  | IIIB | 3.4 µM

Again, the opening 7 rows:

Cc1cn([C@H]2C[C@H](N=[N+]=[N-])[C@@H](CO)O2)c(=O)[nH]c1=O ; cells: HeLa + HELA CD4+ ; value: <0.001 µg/mL
N#CCN1C(=O)N(Cc2cccc(F)c2)S(=O)(=O)c2cscc21 ; cells: MT-4 ; strain or isolate: MN ; value: 0.2 µM
Cc1cn([C@@H]2O[C@H](CO[Si](C)(C)C(C)(C)C)C3(OS(=O)(=O)C=C3N)[C@H]2O[Si](C)(C)C(C)(C)C)c(=O)n(C)c1=O ; cells: CEM ; changes: RT-L100I ; strain or isolate: IIIB-BHAP)(0.1)(RT-L100I ; value: 0.05 µg/mL
CCn1c(=O)c(C)cn([C@@H]2O[C@H](CO[Si](C)(C)C(C)(C)C)C3(OS(=O)(=O)C=C3N)[C@H]2O[Si](C)(C)C(C)(C)C)c1=O ; cells: CEM ; changes: RT-Y181C ; strain or isolate: IIIB nevirapine-resistant (RT Y181C) ; value: >50 µM
CCN1C(=O)N(Cc2ccccc2)S(=O)(=O)c2cscc21 ; cells: CEM ; changes: RT-L100I ; strain or isolate: IIIB ; value: 10.2 µM
Cc1cn([C@@H]2O[C@H](CC3CCCCC3)C3(OS(=O)(=O)C=C3N)[C@H]2O[Si](C)(C)C(C)(C)C)c(=O)[nH]c1=O ; cells: CEM ; strain or isolate: IIIB ; value: >4 µg/mL
Cc1ccnc2c1NC(=O)c1cccnc1N2C1CC1 ; cells: CEM ; changes: RT-L100I ; strain or isolate: IIIB-BHAP)(0.1)(RT-L100I ; value: 0.05 µg/mL